In US20220323471A1 (priority 2019, published 2022):

Test system: ZIKV-RVP
Test: Time-of-drug-addition, ZIKV-RVP in HT1080 cells
Conditions: MOI 0.5, DGP 1 μM, Nanchangmycin 1 μM, NH4Cl 20 mM, 48 hours

Compound	inhibition of infection versus time of drug addition
COc1cc2c(OC3OC(C)C(O)C(O)C3O)c3c(c(-c4ccc5c(c4)OCO5)c2cc1OC)C(=O)OC3 (stereo not drawn) [DGP, 6-deoxyglucose-diphyllin]	stronger when the drug was added at earlier time points
Cl.N [NH4Cl, ammonium chloride, reference compound]	stronger when the drug was added at earlier time points
CO[C@H]1CC[C@@H](O[C@H]2C[C@H]([C@]3(C)CC[C@]4(C[C@H](O)[C@@H](C)[C@@H]([C@@H](C)/C=C(\C)C(=O)[C@H](C)C[C@H](C)C(=O)O)O4)O3)O[C@]3(O[C@@H]([C@H]4O[C@@](O)(CO)[C@H](C)C[C@@H]4C)C[C@@H]3C)[C@@H]2C)O[C@@H]1C [Nanchangmycin]	stronger when the drug was added at earlier time points
